Source: paper PMC11594364

The chains behind the UniProt entries cited, without tags or fusion partners. Residues count along the entry.
UniProt P9WG49, whole entry: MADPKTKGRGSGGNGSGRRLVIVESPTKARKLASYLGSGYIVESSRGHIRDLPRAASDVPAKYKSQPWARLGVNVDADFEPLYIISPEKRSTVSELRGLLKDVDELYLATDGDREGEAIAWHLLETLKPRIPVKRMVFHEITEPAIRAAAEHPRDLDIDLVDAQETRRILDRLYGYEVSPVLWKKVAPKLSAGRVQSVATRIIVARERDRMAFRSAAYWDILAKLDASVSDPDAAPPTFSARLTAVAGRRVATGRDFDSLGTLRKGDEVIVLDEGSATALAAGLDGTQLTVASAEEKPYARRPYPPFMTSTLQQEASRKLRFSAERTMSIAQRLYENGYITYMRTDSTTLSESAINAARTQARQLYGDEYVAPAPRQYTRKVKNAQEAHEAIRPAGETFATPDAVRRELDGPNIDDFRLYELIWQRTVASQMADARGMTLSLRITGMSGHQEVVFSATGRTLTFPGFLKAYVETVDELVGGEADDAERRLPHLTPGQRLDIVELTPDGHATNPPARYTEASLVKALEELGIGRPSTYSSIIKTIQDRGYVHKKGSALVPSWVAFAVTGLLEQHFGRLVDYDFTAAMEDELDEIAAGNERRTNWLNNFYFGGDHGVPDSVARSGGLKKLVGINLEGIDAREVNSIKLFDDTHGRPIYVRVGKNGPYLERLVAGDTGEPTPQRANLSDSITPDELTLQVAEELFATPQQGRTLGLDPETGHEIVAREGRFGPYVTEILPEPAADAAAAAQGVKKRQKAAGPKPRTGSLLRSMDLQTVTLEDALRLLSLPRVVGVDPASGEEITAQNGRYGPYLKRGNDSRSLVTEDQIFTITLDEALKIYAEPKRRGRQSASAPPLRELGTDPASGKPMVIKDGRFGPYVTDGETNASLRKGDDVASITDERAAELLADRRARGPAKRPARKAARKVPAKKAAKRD
UniProt P11387, 2-765 limits assumed: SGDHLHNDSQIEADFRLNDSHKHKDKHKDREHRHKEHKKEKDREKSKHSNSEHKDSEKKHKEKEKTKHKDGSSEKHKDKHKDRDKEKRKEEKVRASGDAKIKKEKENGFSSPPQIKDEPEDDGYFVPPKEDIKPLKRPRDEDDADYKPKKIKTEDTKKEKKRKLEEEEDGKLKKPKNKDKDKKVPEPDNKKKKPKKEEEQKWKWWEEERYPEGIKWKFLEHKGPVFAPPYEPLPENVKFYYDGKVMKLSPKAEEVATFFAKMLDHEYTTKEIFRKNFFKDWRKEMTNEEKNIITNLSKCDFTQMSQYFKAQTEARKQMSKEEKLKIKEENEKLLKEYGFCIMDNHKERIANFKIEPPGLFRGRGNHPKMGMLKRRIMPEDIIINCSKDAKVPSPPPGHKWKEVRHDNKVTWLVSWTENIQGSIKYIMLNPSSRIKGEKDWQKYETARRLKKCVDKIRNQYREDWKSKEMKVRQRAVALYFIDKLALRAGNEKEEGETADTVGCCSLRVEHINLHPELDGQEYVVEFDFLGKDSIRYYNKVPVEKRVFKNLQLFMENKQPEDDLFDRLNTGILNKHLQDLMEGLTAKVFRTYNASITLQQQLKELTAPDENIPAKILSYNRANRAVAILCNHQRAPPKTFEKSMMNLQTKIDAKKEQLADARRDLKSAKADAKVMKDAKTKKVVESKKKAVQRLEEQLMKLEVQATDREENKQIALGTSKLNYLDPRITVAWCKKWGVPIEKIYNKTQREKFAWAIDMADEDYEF

Key:
[1] = molecular target: M. tuberculosis topoisomerase I (MtbTOP1) (Mycobacterium tuberculosis, UniProt P9WG49); assay: gel-based relaxation assay of supercoiled plasmid DNA, purified recombinant enzyme, serial dilutions
human topoisomerase I = human topoisomerase I (Homo sapiens, UniProt P11387); assay: as above

Q: With `CCOC(=O)c1c(NC(=O)CSc2nc3sc(C(=O)O)c(C)c3c(=O)[nH]2)sc(C)c1C` as the compound, how does the IC50 [1] read?
A: Its IC50 is 8.3 µM.

Q: What about the IC50 (human topoisomerase I) of the same compound?
A: The IC50 was 50 to 100 µM.

Q: Which IC50 [1] does the source give for `COc1cc2c(cc1NC(=O)CSc1nc3sc(C(=O)O)c(C)c3c(=O)[nH]1)oc1ccccc12` here?
A: The IC50 was 7 µM.

Q: And the IC50 (human topoisomerase I)?
A: The IC50 was 25 to 50 µM.
